Measurements reported in publication PMC11450120, “One-pot synthesis, characterization and antiviral properties of new benzenesulfonamide-based spirothiazolidinones” (Molecular Diversity, 2024).

Test system: Madin-Darby canine kidney (MDCK) cells
Settings: dog

For `NC(=O)c1ncn([C@@H]2O[C@H](CO)[C@@H](O)[C@H]2O)n1` [Ribavirin, reference compound], the “Cytotoxicity MCC (minimal cytotoxic concentration)” value was 100 µM.
